Source: US20140018288A1, “X-DING-CD4 Peptide” (priority 2012, published 2014)

Tested on: human fetal astrocytes
Test: Cellular uptake of sX-DING-CD4 by human fetal astrocytes, confocal microscopy
Format: cell-based
Settings: 100 ng/ml

B1: X-DING-CD4: native form of X-DING-CD4 protein purified from the extracellular compartment of HIV-1 resistant T-cells, about 40 kDa (protein, listed as Homo sapiens)
chain: MADINGGGATLPQPLYQTSGVLTAGFAPYIGVGSGKGKLAFLNNDYSQFGTGTKNVHWAGSDSKLTSTELSTYASTKQAAWGKLIQVPSVATSVAIPFNKAGSNAVDLSVDQLCGVFSGRITTWNQLPATGRTGNIVVVYRNEASGTTELFTRFLTAKCVNESKKFVVTTNFADSFGVPAGAVPAVTSQGVMTKLNAGDGRITYMSPDYAAPTLAGLDDATKVAKVAGVSPAPDNVSAAIAAVPVPAAANVALQNAWVPVFAAAADANDPSVVPYPSTGFPILGFTNLIFSQ
B1 was tested. Which “cellular localization of X-DING-CD4 after exposure” value (30 minutes) did it give?
Its value is “could be detected on cell membranes”.

And the “cellular localization of X-DING-CD4 after exposure” value (6 hours)?
Its value is “could be detected on cell membrane, in cytosol, and in nucleus”.
